Measurements reported in PubChem BioAssay AID504761 (Drosophila RNAi Screening Center, 2011).
Assay: 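Insect host genes that dengue virus relies on to spread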 (primary screen). Cells: D.Mel-2 cells from Drosophila. Reagents: long dsRNA against Drosophila genes. Conditions: infection with dengue virus type 2; dose and infection time not stated. Measured: 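Per well on two replicate plates, imaging gave the percent of cells positive for viral envelope protein, ranked by infection, and a nuclear count of cells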. Direction: infection score: higher = more virus-infected cells; cell count: higher = more cells in the well. Active means: 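Very low infection ranking in both replicate wells (chance probability at most 0.065), then a retest showing infection dropped 1.5-fold or more at p below 0.05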. Calls: active = confirmed: knock-down lowers infection; inactive = not picked or not confirmed.
The deposit covers about 22,000 reagents; this is an unselected part of those with a known target gene and a result. Over the whole deposit, 116 (0.52%) got an active call. 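Calls depend on retest data that are not deposited; infection was ranked per plate without normalising between plates; the unit of the infection score is not given.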 Raw values vary from plate to plate and are shown uncorrected. The numbers tell different reagents against one gene apart. Names joined by + are all predicted targets of the reagent. The record does not give: the amount of reagent, the time to read-out.

gene	reagent	infection score, replicate 1	infection score, replicate 2	cell count, replicate 1	cell count, replicate 2	Call
CG15563	1	6.71	1.72	6588	6865	inactive
CG15563	2	6.02	38.2	6881	5681	inactive
Ugt307A1	1	12.6		3882	496	inactive
CG42726 + CG42727	1	15	26.4	5543	6272	inactive
CG42726 + CG42727	2	3.31	1.66	6682	6734	inactive
Ntl	1	38.8	9.54	4993	5661	inactive
Ntl	2	7.55	12.7	6440	6639	inactive
nsr	1	2.42	9.98	6375	5351	inactive
nsr	2	1.57	7.59	6036	6495	inactive
CG13005	1	6.31	10.2	6072	6308	inactive
Grl43a	1	15.6	10.3	5873	2832	inactive
CG10877	1	1.93	4.43	6890	6406	inactive
hiw	1	9.63	3.82	6325	6595	inactive
hiw	2	0.93	29.2	323	4249	inactive
hiw	3	0.26	4.45	6457	5849	inactive
Mlp60A	1	6.68	9.92	5553	3711	inactive
Mlp60A	2	3.53	3.79	6705	6512	inactive
Mlp60A	3	0.7	13.8	5735	5576	inactive
Btnd	1	3.52	3.6	6213	6057	inactive
Btnd	2	1.61	4.75	5974	6362	inactive
tyf	1	1.9	4.1	6267	903	inactive
tyf	2	13.5	14.2	5143	5059	inactive
SdhD	1	2.9	6.64	5756	5801	inactive
CG3679	1	11	4.28	6508	6358	inactive
CG3679	2	2.03	12.5	6220	5777	inactive
l(2)gl	1	11.5	1.48	6250	6467	inactive
Nup43	1	6.35	3.23	1828	5515	inactive
lbk	1	2.95	2.08	6675	6386	active
CG3528	1	3.98	5.19	6483	6766	inactive
CG3528	2	13.2	17.3	3856	5643	inactive
MtnA	1	32.7		4530	324	inactive
CG15710	1	14.1	11.9	5561	5724	inactive
vvl	1	2.03	8.38	6098	5429	inactive
vvl	2	9.42	1.55	6169	6795	inactive
Drip	1	15.7	7.99	3879	6222	inactive
nrv3	1	28.6	7.16	5736	6646	inactive
Mvd	1	2.39	1.49	6911	7380	inactive
CG34446	1	2.31	1.12	6570	6234	inactive
Smurf	1	8.72	12.2	6769	5910	inactive
Smurf	2	13.8	6.79	5928	5804	inactive
stx	1	1.82	19.4	5718	2185	inactive
stx	2	17.3	9.51	4042	4185	inactive
scny	1	12.7	4.68	5520	6201	inactive
scny	2	0.92	20.7	6506	5982	inactive
scny	3	2.93	6.13	6621	6411	inactive
Ac3	1	23.1	17.8	6366	6123	inactive
Osi19	1	3.34	4.13	6446	6419	inactive
CG3640	1	19.6	5.87	5555	6989	inactive
fun (retired record)	1	13.4	5.3	3645	6189	inactive
CCAP-R	1	2.41	5.05	6724	6460	inactive
CCAP-R	2	2.82	3.96	6622	6995	inactive
CCAP-R	3	0.97		413	312	inactive
Sesn	1	21.9	36.7	6555	4586	inactive
Sesn	2	4.37	6.47	6362	6569	inactive
Sesn	3	15.8	8.38	6552	6875	inactive
CG3434	1	10.6	2.34	6432	6411	inactive
CG15803	1	1.54	1.55	6741	6959	inactive
mab-21	1	3.32	3.6	5879	6140	inactive
mab-21	2	5.47	3.04	4549	6156	inactive

Only “infection score, replicate 2”, for 5 of the entries above:
nrv3: 7.16
Mvd: 1.49
CG34446: 1.12
Smurf #1: 12.2
Smurf #2: 6.79
